Measured values from several laboratories, pooled; numbers as filed in NIAID ChemDB.

Shared fields: whole-cell or culture tests; organism: Mycobacterium tuberculosis

MIC50, MIC90 and the like: level of inhibition, or share of isolates inhibited. An empty or dashed field is not shown. MIC bound: limit read from a one-dose screen. ECn is the concentration giving n% inhibition of infection, replication or growth. Inhibition is in % at the dose shown (toxicity tests: loss of growth or viability). Rows are shuffled and stem from different studies.

compound	cell line	dose	strain or isolate	method	endpoint	result
CCOC(c1ccccc1)c1ccccc1	-	-	H37Rv	-	MIC	100 µg/mL
C(=C\c1ccccc1)/CNc1ccccc1Cn1ccnc1	-	-	B814	-	MIC	2 µg/mL
CCCOC(=O)C1=C(C)NC(C)=C(C(=O)N(CC)CC)C1c1ncc([N+](=O)[O-])n1C	-	-	H37Rv (ATCC 27294)	-	MIC	0.002 µM
C/C=C/C=C/[C@@H]1O[C@](O)([C@H](OC)C(=O)NC/C=C/C=C(/C)[C@@H](OC)[C@@H](C)[C@@H]2O[C@H](/C=C/C=C/C=C(\C)C(=O)c3c(O)cc[nH]c3=O)[C@H](O)[C@@H]2O)[C@H](O)[C@H](O)C1(C)C	-	-	H37Rv	BACTEC	MIC bound	>12.5 µg/mL
CO[C@H]1/C=C/O[C@@]2(C)Oc3c(C)c(O)c4c(O)c(c(/C=N/N5CCCC(O)C5)c(O)c4c3C2=O)NC(=O)/C(C)=C\C=C\[C@H](C)[C@H](O)[C@@H](C)[C@@H](O)[C@@H](C)[C@H](OC(C)=O)[C@@H]1C	-	-	H37Rv	-	EC50	0.5 µg/mL
CCCCOc1nc(N)nc(NC)n1	-	-	H37Rv	-	MIC	>100 µg/mL
C[CH2][Sn]([Cl])([Cl])[CH2]C.c1cnc2c(c1)ccc1cccnc12	-	-	H37Rv	BACTEC	MIC bound	≤12.5 µg/mL
COc1ccc(C(=O)O)c([N+](=O)[O-])c1	-	-	H37Rv	-	MIC	25 µg/mL
NC(=O)c1ncccc1C(=O)O	-	6.25 µg/mL	H37Rv	resazurin	inhibition	12%
CO/N=C/c1c2c(O)c3c(O)c(C)c4c(c3c1O)C(=O)[C@@](C)(O/C=C/[C@H](OC)[C@@H](C)[C@@H](OC(C)=O)[C@H](C)[C@H](O)[C@H](C)[C@@H](O)[C@@H](C)/C=C/C=C(/C)C(=O)N2)O4	-	-	H37Rv	-	EC50	0.05 µg/mL
COC1=NC2=CC(=O)c3c(c(OC(C)=O)c(C)c4c3C(=O)[C@@](C)(O/C=C/[C@H](OC)[C@@H](C)[C@@H](OC(C)=O)[C@H](C)[C@H](O)[C@H](C)[C@@H](OC(C)=O)[C@@H](C)/C=C/C=C\1C)O4)C2=O	VERO	-	H37Rv	BACTEC	MIC	12.5 µg/mL
CO[C@H]1/C=C/O[C@@]2(C)Oc3c(C)c(O)c4c(O)c(c(/C=N/N5CCN(C)CC5)c(O)c4c3C2=O)NC(=O)/C(C)=C\C=C\[C@H](C)[C@H](O)[C@@H](C)[C@@H](O)[C@@H](C)[C@H](OC(C)=O)[C@@H]1C	-	-	JHU H37Rv	BACTEC	MIC	0.063 µg/mL
Cc1cc(S(=O)(=O)c2ccc(N)cc2)ccc1N	-	-	H37Rv	-	MIC	25 µg/mL
CCCCN(CCCC)c1cc2c(O)c3c(O)c(C)c4c(c13)C(=O)[C@@](C)(O/C=C/[C@H](OC)[C@@H](C)[C@@H](OC(C)=O)[C@H](C)[C@H](O)[C@H](C)[C@@H](O)[C@@H](C)/C=C/C=C(/C)C(=O)N2)O4	-	-	H37Rv	-	MIC	0.2 µg/mL
CO[C@H]1/C=C/O[C@@]2(C)Oc3c(C)c(O)c4c(O)c(c5c(c4c3C2=O)NC2(CCN(CC(C)C)CC2)N=5)=NC(=O)/C(C)=C\C=C\[C@H](C)[C@H](O)[C@@H](C)[C@@H](O)[C@@H](C)[C@H](OC(C)=O)[C@@H]1C	-	-	H37Rv	-	MBC	0.125 µg/mL
O=C1NCCN1c1ncc([N+](=O)[O-])s1	-	6.25 µg/mL	H37Rv	resazurin	inhibition	-28%
C=C(C)/C=C/[C@]12C[C@H](C)[C@H]3CC[C@](C)(NC=O)[C@@H](CC[C@H]1C)[C@@H]32	-	8 µg/mL	H37Rv	-	inhibition	17%
NNC(=O)C(=O)N/N=C(\CCC(=O)NCCc1ccccc1)CC(=O)c1ccccc1	-	12.5 µg/mL	H37Rv	BACTEC	inhibition	4%
CCN(CC)C(=O)C1=C(C)NC(C)=C(C(=O)OCCCCCc2ccccc2)C1c1ncc([N+](=O)[O-])n1C	-	-	H37Rv (ATCC 27294)	-	MIC	0.002 µM
CO[C@H]1/C=C/O[C@@]2(C)Oc3c(C)c(O)c4c(O)c(c(/C=N/N5CCN(C)CC5)c(O)c4c3C2=O)NC(=O)/C(C)=C\C=C\[C@H](C)[C@H](O)[C@@H](C)[C@@H](O)[C@@H](C)[C@H](OC(C)=O)[C@@H]1C	-	-	H37Rv	-	EC50	0.5 µg/mL
CCOC(=O)c1ccc(C(=O)OCC)n1-c1cc2cc(c1)CSCc1cc(cc(-n3c(C(=O)OCC)ccc3C(=O)OCC)c1)CSC2	-	6.25 µg/mL	H37Rv	BACTEC	inhibition	0%
CO[C@H]1/C=C/O[C@@]2(C)Oc3c(C)c(O)c4c(O)c(c(/C=N/N5CCC(N6CCCCC6)CC5)c(O)c4c3C2=O)NC(=O)/C(C)=C\C=C\[C@H](C)[C@H](O)[C@@H](C)[C@@H](O)[C@@H](C)[C@H](OC(C)=O)[C@@H]1C	-	-	H37Rv	-	EC50	0.5 µg/mL
C=C(NC(=O)c1cnccn1)C(=O)OC	-	-	H37Rv (ATCC 27294)	resazurin	MIC	100 µg/mL
CC[C@H]1OC(=O)[C@H](C)[C@@H](O[C@H]2C[C@@](C)(OC)[C@@H](O)[C@H](C)O2)[C@H](C)[C@@H](O[C@@H]2O[C@H](C)C[C@H](N(C)C)[C@H]2O)[C@](C)(O)C[C@@H](C)/C(=N\OCOCCOC)[C@H](C)[C@@H](O)[C@]1(C)O	-	-	188 strains	-	MIC50	1 µg/mL
CC(=O)CC(=O)Nc1ccc(C)cn1	-	-	H37Rv	-	MIC	100 µg/mL
CO[C@H]1/C=C/O[C@@]2(C)Oc3c(C)c(O)c4c(O)c(cc(N5CCN(C)CC5)c4c3C2=O)NC(=O)/C(C)=C\C=C\[C@H](C)[C@H](O)[C@@H](C)[C@@H](O)[C@@H](C)[C@H](OC(C)=O)[C@@H]1C	-	-	H37Rv	-	MIC	0.1 µg/mL
CCc1nc2ccc(Cl)cn2c1C(=O)NCc1ccc(N2CCC(c3ccc(OC(F)(F)F)cc3)CC2)cc1	-	-	N0052	turbidity	MIC50	0.0025 µM
CCn1cc(C(=O)O)c(=O)c2cc(F)c(N3CCNC(C)C3)c(F)c21	-	-	H37Rv	-	MIC	4 µg/mL
CO[C@H]1/C=C/O[C@@]2(C)Oc3c(C)c(O)c4c(O)c(cc(N5CCCC(C)C5)c4c3C2=O)NC(=O)/C(C)=C\C=C\[C@H](C)[C@H](O)[C@@H](C)[C@@H](O)[C@@H](C)[C@H](OC(C)=O)[C@@H]1C	-	-	H37Rv	-	MIC	0.1 µg/mL
COc1c2c(cc3c1C1Oc4c(ccc(O)c4CC=C(C)C)C1CO3)OC(C)(C)C=C2	-	-	TAC-R	-	MIC	12.5 µg/mL
CO[C@H]1/C=C/O[C@@]2(C)Oc3c(C)c(O)c4c(O)c5nc(ncc5c(O)c4c3C2=O)/C(C)=C\C=C\[C@H](C)[C@H](O)[C@@H](C)[C@@H](O)[C@@H](C)[C@H](OC(C)=O)[C@@H]1C	-	-	243	-	MIC	0.25 µg/mL
CO[C@H]1/C=C/O[C@@]2(C)Oc3c(C)c(O)c4c(c3C2=O)C(=O)C(CO)=C(NC(=O)/C(C)=C\C=C\[C@H](C)[C@H](O)[C@@H](C)[C@@H](O)[C@@H](C)[C@H](OC(C)=O)[C@@H]1C)C4=O	-	-	H37Rv	BACTEC	MIC bound	≤12.5 µg/mL
O=C(O)c1ccccc1C(=O)c1ccc2ccc(Cl)cc2c1	-	-	H37Rv	-	MIC	50 µg/mL
CO[C@H]1/C=C/O[C@@]2(C)Oc3c(C)c(O)c4c(O)c(c(C=NN)c(O)c4c3C2=O)NC(=O)/C(C)=C\C=C\[C@H](C)[C@H](O)[C@@H](C)[C@@H](O)[C@@H](C)[C@H](OC(C)=O)[C@@H]1C	-	-	H37Rv	-	EC50	1 µg/mL
CC1(C)C(=O)N(Br)C(=O)N1Br	-	-	H37Rv	BACTEC	MIC bound	>12.5 µg/mL
CC(C)(CO)CO	-	-	H37Rv	-	MIC	>100 µg/mL
CCN(CC)C(=O)C1=C(C)NC(C)=C(C(=O)OCCc2ccccc2)C1c1ncc([N+](=O)[O-])n1C	-	-	H37Rv (ATCC 27294)	-	MIC	0.001 µM
CCc1cc(C(N)=O)c2ccccc2n1	-	-	H37Rv	-	MIC	50 µg/mL
NNC(=O)c1ccncc1	-	-	H37Rv (ATCC 27294)	resazurin	MIC	0.05 µM
CCN(CC)C(=O)C1=C(C)NC(C)=C(C(=O)OC(C)C)C1c1ncc([N+](=O)[O-])n1C	-	-	H37Rv (ATCC 27294)	-	MIC	>0.5 µM
Brc1ccc(-c2ccccc2)cc1	-	-	H37Rv	-	MIC	>100 µg/mL
Nc1ccc2c(c1)[nH]c(=O)c1ccc(Cl)cc12	-	-	H37Rv	BACTEC	MIC bound	>12.5 µg/mL
O=[N+]([O-])c1ccc2cn[nH]c2c1	-	-	H37Rv	-	MIC	>100 µg/mL
CN1c2ccccc2CCC1CCc1ccc2c(c1)OCO2	-	-	MT9	-	MIC	>100 µg/mL
CC(=O)Nc1ccc(C(=O)NNC2=C(NNC(=O)c3ccc(NC(C)=O)cc3)C(=O)c3ccccc3C2=O)cc1	-	12.5 µg/mL	H37Rv	BACTEC	inhibition	-5%
CCN(CC)c1ccnc(NCCCCCN2CCCCC2)n1.Cl	-	-	H37Rv	-	MIC	>100 µg/mL
COc1ccc2cc1Oc1ccc(cc1)CCC(=O)OCCC2	-	-	H37Rv	resazurin	EC50	>100 µg/mL
CO[C@H]1/C=C/O[C@@]2(C)Oc3c(C)c(O)c4c(O)c(cc(N5CCOCC5)c4c3C2=O)NC(=O)/C(C)=C\C=C\[C@H](C)[C@H](O)[C@@H](C)[C@@H](O)[C@@H](C)[C@H](OC(C)=O)[C@@H]1C	-	-	H37Rv	-	MIC	0.1 µg/mL
COC(=O)[C@@H]1CCCN1C(=O)CNC(=O)OC(C)(C)C	-	6.25 µg/mL	H37Rv	resazurin	inhibition	5%
CCN(C(C)=O)c1ccccc1	-	-	H37Rv	-	MIC	>100 µg/mL
CCCCCc1cc(OC)c2ccccc2n1	-	-	MT5	-	MIC	21 µg/mL
NC(=O)c1cnccn1	-	-	H37Rv	BACTEC	MIC	32 µg/mL
CN1CCN(C)C1=Nc1ccccc1/C=C/C=C1C(=O)N(C)C(=O)N(C)C1=O	-	-	H37Rv	BACTEC	MIC bound	>12.5 µg/mL
C(=C\c1ccccc1)/CNc1ccc(CN2CCOCC2)cc1	-	-	6425	-	MIC	32 µg/mL
Cc1ccc(NCCN(C)CC(C)O)c2c(=O)c3ccccc3sc12	-	-	H37Rv	BACTEC	MIC	6.25 µg/mL
S=C=Nc1ccc(Cl)cc1	-	-	H37Rv	-	MIC	>100 µg/mL
S=C(S)NCC1CCC(CNC(=S)S)CC1	-	-	H37Rv	BACTEC	MIC bound	≤128 µg/mL
CC(C)=CCC[C@H](C)[C@H]1CC[C@H](C)c2c1cc(C)c1ncoc21	-	12.5 µg/mL	-	-	inhibition	66%
CC1=C(C)C(=O)C(CC2=C(C)C(=O)C(C)=C(C)C2=O)=C(C)C1=O	-	12.5 µg/mL	H37Rv	BACTEC	inhibition	95%
Nc1ccc2nc(CC(=O)c3ccccc3)[nH]c2c1	-	-	H37Rv	-	MIC	>100 µg/mL
Cc1c(CN2CCN(C)CC2)cc(-c2ccc(Cl)cc2)n1-c1ccc(Cl)cc1	-	-	CIP6425	-	MIC	1.5 µg/mL
CO[C@H]1/C=C/O[C@@]2(C)Oc3c(C)c(O)c4c(O)c(c(/C=N/N5CCN(C6CCCC6)CC5)c(O)c4c3C2=O)NC(=O)/C(C)=C\C=C\[C@H](C)[C@H](O)[C@@H](C)[C@@H](O)[C@@H](C)[C@H](OC(C)=O)[C@@H]1C	-	-	13268	-	MIC	0.06 µg/mL
O=C(O)c1ccc(NCc2nc3ccccc3[nH]2)cc1	-	6.25 µg/mL	H37Rv	BACTEC	inhibition	0%
CC(=O)Nc1ccccc1	-	-	H37Rv	-	MIC	>100 µg/mL
O=[N+]([O-])c1ccccc1C1N2CCCCC2[C@@H]2c3[nH]c4ccccc4c3CCN12	-	-	H37Rv	resazurin	MIC bound	>6.25 µg/mL
Oc1ccc2ccncc2c1	-	-	H37Rv	-	MIC	>100 µg/mL
CN1CCN(Cc2ccc(NC/C=C/c3ccccc3)cc2)CC1	-	-	6425	-	MIC	>64 µg/mL
O=C(c1ccccc1)c1ccc(Cl)cc1Cl	-	-	H37Rv	-	MIC	>100 µg/mL
CCN(CC)C(=O)C1=C(C)NC(C)=C(C(=O)OCc2ccccc2)C1c1ncc([N+](=O)[O-])n1C	-	-	H37Rv (ATCC 27294)	-	MIC	0.001 µM
Cc1cc(Cl)cc(SCC(=O)O)c1C#N	-	-	H37Rv	-	MIC	100 µg/mL
CO[C@H]1/C=C/O[C@@]2(C)Oc3c(C)c(O)c4c(O)c(c(C=Nc5ccc6ccccc6c5)c(O)c4c3C2=O)NC(=O)/C(C)=C\C=C\[C@H](C)[C@H](O)[C@@H](C)[C@@H](O)[C@@H](C)[C@H](OC(C)=O)[C@@H]1C	-	-	H37Rv	-	EC50	>1 µg/mL
O=C(OC(=O)c1ccc2ccccc2c1)c1ccc2ccccc2c1	-	-	H37Rv	-	MIC	>100 µg/mL
COC(=O)CCC(N)C(=O)NC(Cc1ccccc1)C(=O)NC(C)C(=O)NC1C(O)OC(CO)C(O)C1O	-	-	H37Rv	BACTEC	MIC bound	>12.5 µg/mL
CN1CCN(Cc2ccccc2NC/C=C/c2ccccc2)CC1	-	-	6425	-	MIC	32 µg/mL
O=C1C(O)=C(Cl)C(=O)C(O)=C1Cl	-	-	H37Rv	-	MIC	>100 µg/mL

A second listing of 4 rows from above:

compound	cell line	dose	strain or isolate	method	endpoint	result
CC(C)(CO)CO	-	-	H37Rv	-	MIC	>100 µg/mL
COc1c2c(cc3c1C1Oc4c(ccc(O)c4CC=C(C)C)C1CO3)OC(C)(C)C=C2	-	-	TAC-R	-	MIC	12.5 µg/mL
Cc1c(CN2CCN(C)CC2)cc(-c2ccc(Cl)cc2)n1-c1ccc(Cl)cc1	-	-	CIP6425	-	MIC	1.5 µg/mL
CC(=O)Nc1ccc(C(=O)NNC2=C(NNC(=O)c3ccc(NC(C)=O)cc3)C(=O)c3ccccc3C2=O)cc1	-	12.5 µg/mL	H37Rv	BACTEC	inhibition	-5%